The target of this assay is SARS-CoV-2 RBD (SARS-CoV-2). As to the kind of experiment: ELISA. (ELISA stands for enzyme-linked immunosorbent assay.)

Data on one molecule can be found in US11634477 (dated 2023).

B1: C127 (antibody, V domains shown)
VH: QVQLVQSGAEVKKPGASVKVSCKASGYTFTGYYMHWVRQAPGQGLEWMGWINPNSGGTNYAQKFQGRVTMTRDTSISTAYMELSRLRSDDTAVYYCATAHPRRIQGVFFLGPGVWGQGTTVTVSS
VL: not shown
One may read the EC50 as the concentration that produces a half-maximal response. B1: the EC50 turned out to be 2.62 ng/mL.
